Data from article PMC3274548, “Toward New Therapeutics for Skin and Soft Tissue Infections: Propargyl-Linked Antifolates Are Potent Inhibitors of MRSA and Streptococcus pyogenes” (PLoS ONE, 2012).

Assays:
MRSA (S.aureus 13709) = experiment: MIC, broth microdilution with Alamar Blue; assay type: cell-based, Staphylococcus aureus; conditions: IC50 (MCF10)/MIC (pathogen), both values in µM
Streptococcus pyogenes = experiment: MIC, broth microdilution with Alamar Blue; assay type: cell-based; conditions: IC50 (MCF10)/MIC (pathogen), both values in µM
Method: Stock solutions of standard antibiotics and test compounds were made at 50 mM in DMSO. […] For susceptibility testing, 10 µL of glycerol stock was suspended in a 10 mL shake flask culture of chemically defined Isosensitest broth (Oxoid) supplemented with 2% w/v glucose. A sample of the shake flask culture was diluted to 1×10^6 cells/mL in media and added to 96-well test plates (100 µL per well) containing test compounds dispensed in DMSO (2 µL) using serial two-fold dilutions. After an incubation period (30°C) determined from the strain specific doubling time, a 0.03% w/v aqueous solution of resazurin (10 µL) was added and the plates were allowed to incubate; each well was then scored for dye reduction.

[1] = test system: Staphylococcus aureus subsp. aureus ATCC 44300; experiment: MIC and MBC determination (microdilution, plating on Isosensitest agar); assay type: cell-based; conditions: strain ATCC 44300
Description: MBC was defined as the lowest concentration of inhibitor preventing colony growth on agar plates.

| Compound | Selectivity MRSA (MRSA (S.aureus 13709)) | Selectivity S. pyogenes (Streptococcus pyogenes) | Ratio MBC/MIC [1] |
| --- | --- | --- | --- |
| CCc1nc(N)nc(N)c1C#CCc1cc(OC)cc(-c2ccccc2)c1 [Compound 9] | 398 | 398 |  |
| CCc1nc(N)nc(N)c1C#CCc1cccc(-c2ccccc2)c1 [Compound 8] | 16 | 16 |  |
| COc1cc(-c2ccncc2)cc(C(C)C#Cc2c(C)nc(N)nc2N)c1 (centres unmarked) [Compound 24] |  |  | 1.0 |
